A mixed list of measured activities; the numbers were collected in NIAID ChemDB.

Inhibition is in % at the dose shown (toxicity tests: loss of growth or viability).

Cc1cc(Nc2ccc(N(C)C)cc2)c2cc(N(C)C)ccc2n1 ; read by: resazurin ; read-out: inhibition ; strain: H37Rv ; kind: culture ; species: Mycobacterium tuberculosis ; tested at: 6.25 µg/mL ; value: 98%
CCCCCCCCCCCNc1nnc(NC(=O)c2ccc(I)cc2)s1 ; protein: Polymerase ; read-out: IC50 ; kind: target ; species: Human cytomegalovirus ; value: <25 µM
O=C(O)CC1=CC(=O)OC1=O ; read-out: MIC ; strain: H37Rv ; kind: culture ; species: Mycobacterium tuberculosis ; value: >100 µg/mL
CC(C)c1cc(C(C)C)c(C(=O)Nc2nnc(NCc3ccc(F)cc3)s2)c(C(C)C)c1 ; protein: Polymerase ; read-out: IC50 ; kind: target ; species: Human cytomegalovirus ; value: >25 µM
O=C1c2c(O)ccc(O)c2C(=O)c2c(NCCNCCO)ccc(NCCNCCO)c21 ; read-out: inhibition ; strain: H37Rv ; kind: culture ; species: Mycobacterium tuberculosis ; tested at: 6.25 µg/mL ; value: 19%
Cc1cccc(N2CCN(c3cncc(-c4ccc(C(N)=O)cc4)n3)CC2C)c1 ; protein: UL97 kinase ; read-out: IC50 ; kind: target ; species: Cytomegalovirus ; value: <10 µM
O=C(Nc1nnc(NC2CCN(Cc3ccccc3)CC2)s1)c1ccc2c(c1)C(=O)OC2=O ; protein: Polymerase ; read-out: IC50 ; kind: target ; species: Human cytomegalovirus ; value: <25 µM
C/C=C1\CN2CCC1CC2C(O)c1ccnc2ccc(O)cc12 ; read-out: MIC bound ; strain: H37Rv ; kind: culture ; species: Mycobacterium tuberculosis ; value: >6.25 µg/mL
Cc1ccc(-c2cncc(N3CCN(c4ccc(F)cc4F)CC3)n2)cc1 ; protein: UL97 kinase ; read-out: IC50 ; kind: target ; species: Cytomegalovirus ; value: <100 µM
O=C1OC(=O)c2nc3ccccc3nc21 ; read by: BACTEC ; read-out: inhibition ; strain: H37Rv ; kind: culture ; species: Mycobacterium tuberculosis ; tested at: 12.5 µg/mL ; value: 2%
Cl.Nc1cccc(OCCCBr)c1 ; read-out: MIC ; strain: H37Rv ; kind: culture ; species: Mycobacterium tuberculosis ; value: 25 µg/mL
Fc1ccc(N2CCCCC2)c(NC(=S)c2ccncc2)c1 ; read by: kinase activity ; protein: EphA2 ; read-out: inhibition ; kind: host protein ; tested at: 10 µM ; value: 12%
CC1=NN(c2ccc(C(=O)O)cc2)C(=O)C1 ; read-out: MIC ; strain: H37Rv ; kind: culture ; species: Mycobacterium tuberculosis ; value: >100 µg/mL
O=C1C2C3CCC(O3)C2C(=O)N1SC(Cl)(Cl)Cl ; read by: BACTEC ; read-out: MIC bound ; strain: H37Rv ; kind: culture ; species: Mycobacterium tuberculosis ; value: ≤12.5 µg/mL
Fc1ccc(N2CCN(c3cncc(-c4ccoc4)n3)CC2)cc1 ; protein: UL97 kinase ; read-out: inhibition ; kind: target ; species: Cytomegalovirus ; tested at: 10 µM ; value: >15%
O=C(/C=C/c1ccccc1Cl)Nc1nnc(NCCc2cnc[nH]2)s1 ; protein: Polymerase ; read-out: IC50 ; kind: target ; species: Human cytomegalovirus ; value: <25 µM
[CH3][Sn]([CH3])([Cl])[Br].c1cnc2c(c1)ccc1cccnc12 ; read by: BACTEC ; read-out: MIC bound ; strain: H37Rv ; kind: culture ; species: Mycobacterium tuberculosis ; value: ≤12.5 µg/mL
CC(C)CCCC(C)C1CCC2C3CC=C4CC(Cl)CCC4(C)C3CCC12C ; read-out: MIC ; strain: H37Rv ; kind: culture ; species: Mycobacterium tuberculosis ; value: >100 µg/mL
CC(=O)c1ccc(N2CCN(c3cncc(-c4cccc(F)c4)n3)CC2)cc1 ; protein: UL97 kinase ; read-out: inhibition ; kind: target ; species: Cytomegalovirus ; tested at: 10 µM ; value: >15%
CCOC(=O)C1=C(Nc2ccc(Br)cc2)OC/C1=N\NC(=O)c1ccccc1O ; read by: BACTEC ; read-out: MIC bound ; strain: H37Rv ; kind: culture ; species: Mycobacterium tuberculosis ; value: >12.5 µg/mL
O=C(Nc1nnc(NCCN2CCOCC2)s1)c1cc2ccccc2s1 ; protein: Polymerase ; read-out: IC50 ; kind: target ; species: Human cytomegalovirus ; value: >25 µM
COc1ccc(S(=O)[O-])cc1NC(C)=O.[Na+] ; read-out: MIC ; strain: H37Rv ; kind: culture ; species: Mycobacterium tuberculosis ; value: 100 µg/mL
COc1ccc(CNc2nnc(NC(=O)c3ccc(I)cc3)s2)cc1OC ; protein: Polymerase ; read-out: IC50 ; kind: target ; species: Human cytomegalovirus ; value: <25 µM
Nc1ccc(NC(=O)CC(=O)c2ccccc2)c(Cl)c1 ; read-out: MIC ; strain: H37Rv ; kind: culture ; species: Mycobacterium tuberculosis ; value: >100 µg/mL
O=c1[nH]c2ccc([N+](=O)[O-])cc2c2nc3ccccc3n12 ; read by: BACTEC ; read-out: inhibition ; strain: H37Rv ; kind: culture ; species: Mycobacterium tuberculosis ; tested at: 12.5 µg/mL ; value: 76%
CS(=O)(=O)c1ccc(N)c(S(C)(=O)=O)c1 ; read-out: MIC ; strain: H37Rv ; kind: culture ; species: Mycobacterium tuberculosis ; value: >100 µg/mL
CC1C(=O)c2cc3c(cc2CCN(C)Cc2c1ccc1c2OCO1)OCO3 ; read by: BACTEC ; read-out: MIC bound ; strain: H37Rv ; kind: culture ; species: Mycobacterium tuberculosis ; value: >12.8 µg/mL
Nc1cc(=O)[nH]n1-c1ccccn1 ; read-out: MIC ; strain: H37Rv ; kind: culture ; species: Mycobacterium tuberculosis ; value: 100 µg/mL
CCOc1ccc(-c2cncc(N3CCN(c4ccncc4)CC3)n2)cc1 ; protein: UL97 kinase ; read-out: IC50 ; kind: target ; species: Cytomegalovirus ; value: <10 µM
O=C(O)c1ccccc1Br ; read-out: MIC ; strain: H37Rv ; kind: culture ; species: Mycobacterium tuberculosis ; value: 100 µg/mL
CCOC(=O)c1c(N)sc2c1C(C(=O)OCC)CC2 ; read by: resazurin ; read-out: MIC bound ; strain: H37Rv ; kind: culture ; species: Mycobacterium tuberculosis ; value: >6.25 µg/mL
CCOC(=O)C(=O)c1ccccc1 ; read-out: MIC ; strain: H37Rv ; kind: culture ; species: Mycobacterium tuberculosis ; value: >100 µg/mL
CC(=O)c1ccc(N2CCN(c3cncc(-c4ccc(C(C)(C)C)cc4)n3)CC2)cc1 ; protein: UL97 kinase ; read-out: IC50 ; kind: target ; species: Cytomegalovirus ; value: <100 µM
COc1cc2c(c(OC)c1OC)-c1ccc(OC)c(=O)cc1C(NC1=C(Cl)C(=O)c3ccccc3C1=O)CC2 ; read by: BACTEC ; read-out: MIC bound ; strain: H37Rv ; kind: culture ; species: Mycobacterium tuberculosis ; value: ≤12.5 µg/mL
O=S(=O)(O)c1ccc2ncccc2c1 ; read-out: MIC ; strain: H37Rv ; kind: culture ; species: Mycobacterium tuberculosis ; value: 25 µg/mL
Cc1cccn2c(=O)c(/C=N/NC(N)=S)c(Cl)nc12 ; read by: resazurin ; read-out: inhibition ; strain: H37Rv ; kind: culture ; species: Mycobacterium tuberculosis ; tested at: 6.25 µg/mL ; value: 20%
O=C(O)COc1ccc(Cl)cc1Cl ; read-out: MIC ; strain: H37Rv ; kind: culture ; species: Mycobacterium tuberculosis ; value: >100 µg/mL
NC(=O)c1csc([C@@H]2O[C@@H]3COP(=O)(O)O[C@H]3[C@H]2O)n1 ; read by: BACTEC ; read-out: inhibition ; strain: H37Rv ; kind: culture ; species: Mycobacterium tuberculosis ; tested at: 12.5 µg/mL ; value: 8%
Cc1cc(C)c(C(=O)[O-])cc1C.[Na+] ; read-out: MIC ; strain: H37Rv ; kind: culture ; species: Mycobacterium tuberculosis ; value: >100 µg/mL

The last 5 rows once more:

smiles,read by,protein,read-out,strain,kind,species,tested at,value
O=S(=O)(O)c1ccc2ncccc2c1,-,-,MIC,H37Rv,culture,Mycobacterium tuberculosis,-,25 µg/mL
Cc1cccn2c(=O)c(/C=N/NC(N)=S)c(Cl)nc12,resazurin,-,inhibition,H37Rv,culture,Mycobacterium tuberculosis,6.25 µg/mL,20%
O=C(O)COc1ccc(Cl)cc1Cl,-,-,MIC,H37Rv,culture,Mycobacterium tuberculosis,-,>100 µg/mL
NC(=O)c1csc([C@@H]2O[C@@H]3COP(=O)(O)O[C@H]3[C@H]2O)n1,BACTEC,-,inhibition,H37Rv,culture,Mycobacterium tuberculosis,12.5 µg/mL,8%
Cc1cc(C)c(C(=O)[O-])cc1C.[Na+],-,-,MIC,H37Rv,culture,Mycobacterium tuberculosis,-,>100 µg/mL

ICn is the concentration giving n% inhibition. Blank or dashed fields: not listed here. MIC bound: limit read from a one-dose screen. Neighbouring rows are from separate reports.